Values are the deposited “Percent Effect”, in %. The record does not define 0% and 100%; most values in the screen are far below 50% and negative numbers occur (in some assays of this library far below -100). Many other results are left out here, so strong results are more common than in the screen. A dash means the value is not listed here; it may have been measured.

A: 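Growth of Mycobacterium tuberculosis over 4 days (cholesterol / DPPC medium with tyloxapol); the read-out is not stated. Tested at 500 µM. Direction is inferred from retests: higher values go with more growth inhibition. About 18,000 compounds were tested under these conditions; 5% (about 900) showed 50% or more at least once.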
B: 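Growth of Mycobacterium tuberculosis over 3 days (7H9 medium with glucose and tyloxapol); the read-out is not stated. Compounds at 500 µM. Direction is inferred from retests: higher values go with more growth inhibition. Size under these conditions: about 18,000 compounds, about 1,400 of them at 50% or above in at least one test.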

| Compound | A | B |
|---|---|---|
| `OCC1CCCN(Cc2cccc3c2OCO3)C1` (centres undefined) | 0.2751 | - |
| `O=C(CCN1CCC(O)CC1)N1CCc2ccccc21` | -7.046 | 6.824 |
| `Cc1cc(NC(=O)CCc2cncc(F)c2)nc(=O)[nH]1` | - | -4.098 |
| `COC(C)C(=O)NCCN(C)C(C)C` (centres undefined) | -2.653 | - |
| `CC(=O)NC(c1nc(-c2ccncc2)no1)C(C)C` (centres undefined) | - | 27.23 |
| `NCC(N)c1ccc2ncccc2c1` (centres undefined) | 11.67 | - |
| `FC(F)(F)CCOC1CCNCC1` | 28.56 | - |
| `Cc1ccc(F)cc1C(=O)NCCNC1CC1` | - | 34.79 |
| `CC(=O)c1ccc(N)nc1` | - | -0.162 |
| `Cc1ccc(C(C)NC(=O)c2cnsn2)o1` (centres undefined) | - | 0.1652 |
| `Cc1nn(C)c(C)c1CC(=O)N1CCSCC1` | - | 13.3 |
| `CNS(=O)(=O)c1ccc(C(=O)NC2CCSCC2)cc1` | - | 2.5 |
| `Cc1cc(N)n(CC(=O)N2CCN(C)C(=O)C2C)n1` (centres undefined) | - | -7.89 |
| `NCCc1cnc2ccccc2c1` | - | 22.93 |
| `CCN(CC)CCN1CCN(CCOC)CC1` | -15.25 | - |
| `NC(=O)c1cccc(CSc2ccncc2)c1` | - | 17.65 |
| `CC(=O)NC1CCCNC1` (centres undefined) | 16.13 | - |
| `CCC(OC)C(=O)NCCCn1ccnc1C(C)C` (centres undefined) | - | 17 |
| `CC(CO)(CO)NC(=O)c1cnc(-c2cccs2)s1` | - | 50.21 |
| `COc1ccc(NS(=O)(=O)N(C)C)c(Br)c1` | - | 52.73 |
| `CN(CC(N)=O)C(=O)Cc1cnn(-c2ccccc2)c1` | -17.93 | - |
| `CCc1ccc(CN2CCN(C(=O)C(C)N)CC2)s1` (centres undefined) | 4.359 | - |
| `CC(=O)c1c[nH]c(C(=O)NCc2ccccc2O)c1` | - | 0.6163 |
| `O=C(Cc1ccc(F)cc1)NCCCn1cccn1` | - | 33.75 |
| `COc1cc(C(C)N)ccc1OCc1ccncc1` (centres undefined) | - | 42.7 |
| `COc1ccc(CNS(=O)(=O)c2c(N)noc2C)cc1` | - | 21.9 |
| `CCCc1cc(=O)[nH]c(C(C)(N)CC)n1` (centres undefined) | -2.297 | 20.48 |
| `Cc1n[nH]c(C)c1-c1cncc(C(=O)N2CCCC2)n1` | - | 3.791 |
| `Cc1c(Cl)c(C(F)F)nn1CC(=O)NCC1CCCO1` (centres undefined) | 3.273 | - |
| `COCC(C)NC(=O)CNc1ccccc1OC(F)F` (centres undefined) | 11.96 | 19.24 |
| `CC(C)CC(O)C(=O)NCc1cc2ccccc2[nH]1` (centres undefined) | - | 54.9 |
| `O=S1(=O)CCC(n2cccn2)C1` (centres undefined) | - | 7.097 |
| `CCN(C)CC1CCN(S(=O)(=O)c2cccnc2)C1` (centres undefined) | -6.036 | - |
| `CC(C)c1cccc(CN[C@H](CO)C(C)C)n1` | - | 57.7 |
| `CCN(Cc1nc(-c2ccc(=O)[nH]c2)no1)C1CC1` | - | 15.09 |
| `CCN(CC)C(=O)COC(=O)c1ccc(O)cc1O` | - | 20.67 |
| `O=C(CO)NC1CCCc2ccccc21` (centres undefined) | - | 20.8 |
| `COc1ccccc1CNC(=O)COc1nc(C)no1` | - | 10.42 |
| `NCc1ccc2c(c1)OCCO2` | -6.368 | - |
| `CN1CCc2ccc(NC(=O)N3CCCC3)cc2C1=O` | -11.65 | - |
| `CCCS(=O)(=O)NC(Cc1ccccn1)[C@H]1C[C@@H](O)C1` (some centres undefined) | -19.74 | - |
| `COc1ccccc1NC(=O)c1ccc(C)nc1` | 25.24 | 51.59 |
| `CC(C)C(CCO)NC(=O)c1nccc2ccccc12` (centres undefined) | 0.9315 | - |
| `NCC(CO)Cc1cc(F)cc(Br)c1` (centres undefined) | - | 64.69 |
| `COc1ccc2c(c1)CCN2C(=O)[C@@H](N)CC(C)C` | 4.562 | 6.383 |
| `CCC(C(=O)NCc1nnc(N)s1)n1cccn1` (centres undefined) | - | 3.052 |
| `CN(CCn1cccn1)c1ncccc1S(N)(=O)=O` | - | 4.563 |
| `O=C(NCCC(O)C(F)(F)F)c1c(O)cc(F)cc1F` (centres undefined) | 77.88 | 74.27 |
| `Cc1ccccc1C(=O)NC1CCN(CCCO)CC1` | - | -8.04 |

Some entries from above, unchanged:

{"compound": "COc1ccccc1CNC(=O)COc1nc(C)no1", "B": 10.42}
{"compound": "Cc1n[nH]c(C)c1-c1cncc(C(=O)N2CCCC2)n1", "B": 3.791}
{"compound": "O=C(NCCC(O)C(F)(F)F)c1c(O)cc(F)cc1F", "stereo": "centres undefined", "A": 77.88, "B": 74.27}
{"compound": "CCc1ccc(CN2CCN(C(=O)C(C)N)CC2)s1", "stereo": "centres undefined", "A": 4.359}
{"compound": "CC(=O)NC1CCCNC1", "stereo": "centres undefined", "A": 16.13}
{"compound": "CC(=O)NC(c1nc(-c2ccncc2)no1)C(C)C", "stereo": "centres undefined", "B": 27.23}

The values are deposited in ChEMBL (CHEMBL3988442, “University of Dundee, Small-Polar-MMV Screening Library” (2021)).